Anti-infective test results gathered from many reports (values: NIAID ChemDB through PubChem).

Common to all: tests in culture

a–b is a range or a potency band. Blank or dashed fields: not listed here. A number after MIC or MFC names an inhibition level or a share of isolates. Rows are shuffled and stem from different studies. Inhibition is in % at the dose shown (toxicity tests: loss of growth or viability). ECn is the concentration giving n% inhibition of infection, replication or growth.

compound | species | strain or isolate | mutations | cells | read by | setting | read-out | tested at | value
N#Cc1cc([N+](=O)[O-])ccc1Oc1ccc(Cl)c(Cl)c1 | Coxsackie virus | TYPE B4 | - | VERO | plaque count | - | inhibition | 0.125 µg/mL | 9.09%
O=c1[nH]c(=O)n([C@H]2C[C@H](O)[C@@H](CO)O2)cc1/C=C/Br | Varicella zoster virus | OKA | - | HELF | plaque count | - | inhibition | 0.01 µg/mL | 50%
CCCC(CCC)C(NC(C)=O)C1CC(C(=O)O)CC1N=C(N)N | Influenza A virus | Influenza A/Johannesburg/33/94 (H3N2) | - | MDCK | - | - | EC50 | - | 0.05 µM
Cc1cc(-c2ccc(N=Nc3c(S(=O)(=O)O)cc4cc(S(=O)(=O)O)cc(N)c4c3O)c(C)c2)ccc1N=Nc1c(S(=O)(=O)O)cc2cc(S(=O)(=O)O)cc(N)c2c1O | Herpes simplex virus | - | - | Human amnion AV3 cells | cytopathic effect | - | inhibition | 10 µg/mL | 0%
CC(C)Oc1ccc(-n2c(C(=O)N[C@H](C)c3ccccc3)c3n(c2=O)CCN(C(=O)c2ccc(Br)c(Cl)c2)C3)cc1 | Hepatitis B virus | - | - | HepG2.117 | PCR | - | EC50 | - | 0.1–0.5 µM
CO[C@H]1/C=C/O[C@@]2(C)Oc3c(C)c(O)c4c(O)c(c5c(c4c3C2=O)NC2(CCN(CC(C)C)CC2)N=5)=NC(=O)/C(C)=C\C=C\[C@H](C)[C@H](O)[C@@H](C)[C@@H](O)[C@@H](C)[C@H](OC(C)=O)[C@@H]1C | Mycobacterium avium intracellulare | LYN | - | - | - | - | MIC | - | 0.5 µg/mL
Cn1cc(C(=O)NCc2ccc(Cl)cc2)c(=O)c2cc(CN3CCOCC3)ccc21 | Human cytomegalovirus | WA | - | HFF | plaque count | - | inhibition | 6.5 µM | 90%
CC(C)Nc1nc2cc(Cl)c(Cl)cc2n1[C@H]1O[C@@H](CO)[C@H](O)[C@@H]1O | Human cytomegalovirus | AD169 | - | MRC-5 | virus yield | - | EC50 | - | 0.06 µM
CC(=O)N[C@H]1[C@H]([C@H](O)[C@H](O)CO)OC(C(=O)O)=C[C@@H]1N=C(N)N | Influenza B virus | B/Harbin/07.94 | - | MDCK | - | - | EC50 | - | 0.2 µM
Cc1cc(CCCOc2c(C)cc(-c3noc(C(F)(F)F)n3)cc2C)on1 | Rhinovirus | Isolate 32 | - | OHIO HELA-I | cytopathic effect / visual reading | - | EC50 | - | 0.03 µg/mL
Nc1ccc2c(O)cc(S(=O)(=O)[O-])cc2c1S(=O)(=O)[O-] | Adenovirus | TYPE 3 | - | Human amnion AV3 cells | cytopathic effect | - | inhibition | 50 µg/mL | 0%
COc1cc(C)cc2c1C(=O)c1cnn(C)c1C2=O | Cryptosporidium parvum | - | - | - | - | - | inhibition | 50 µM | 43%
Cc1ccc2oc(=O)n(-c3ccc(Cl)cc3)c(=S)c2c1 | Mycobacterium kansasii | My 235/80 | - | - | - | 14 d | MIC | - | 2 µM
COc1ccc(-n2c(C(=O)NCc3ccc4ncccc4c3)c3n(c2=O)CCN(C(=O)c2ccc(Cl)c(Cl)c2)C3)cc1 | Hepatitis B virus | - | - | HepG2.117 | PCR | - | EC50 | - | 0.5–5 µM
CCC(CC)[C@H](NC(C)=O)[C@@H]1[C@H](O)[C@@H](C(=O)O)C[C@H]1N=C(N)N | Influenza A virus | H1N1 A/PR/8/34 | - | MDCK | - | - | EC50 | - | 1.5 µM
Cn1ncc2c1C(=O)c1cccc(O)c1C2=O | Cryptosporidium parvum | - | - | - | - | - | inhibition | 25 µM | 100%
CCOC(=O)c1ccc(OCCC2CCN(c3ccc(C)nn3)CC2)cc1 | Rhinovirus | B632 (LDL receptor group 1B) | - | KB | neutral red | - | EC50 | - | 0.008 µM
O=C1c2ccccc2C(=O)c2[nH]ncc21 | Cryptosporidium parvum | - | - | - | - | - | inhibition | 10 µM | <10%
O=c1[nH]c(=O)n([C@H]2C[C@H](O)[C@@H](CO)O2)cc1I | Varicella zoster virus | Kawaguchi | - | HELF | plaque count | - | inhibition | 0.1 µg/mL | 4%
Fc1cccc(-n2c(=S)oc3ccc(Cl)cc3c2=S)c1 | Mycobacterium kansasii | 6509/96 | - | - | - | 14 d | MIC | - | 8 µM
O=S(=O)([O-])c1cc(S(=O)(=O)[O-])c2cc(NS(=O)(=O)c3ccccc3)ccc2c1 | Adenovirus | TYPE 3 | - | Human amnion AV3 cells | cytopathic effect | - | inhibition | 50 µg/mL | 0%
COc1cccc(-n2c(C(=O)NCc3ccccc3)c3n(c2=O)CCN(C(=O)c2ccc(Br)c(Cl)c2)C3)c1 | Hepatitis B virus | - | - | HepG2.117 | PCR | - | EC50 | - | 0.5–5 µM
NCS(=O)(=O)O | Rhinovirus | - | - | Human amnion AV3 cells | cytopathic effect | - | inhibition | 5 µg/mL | 40%
Nc1nc2c(ncn2COC(CO)CO)c(=O)[nH]1 | Human cytomegalovirus | VR5611 (ganciclovir-susceptible) | - | - | plaque count | - | EC50 | - | 2.9 µM
O=C(NCc1ccc(Cl)cc1)c1c[nH]c2c(F)cccc2c1=O | Varicella zoster virus | RAI | - | - | plaque count | - | EC50 | - | 0.5 µM
CN[C@H]1CC[C@@H](c2ccc(Cl)c(Cl)c2)c2ccccc21 | Cryptococcus neoformans | Bt81 | - | - | broth dilution | - | MFC | - | 8 µg/mL
O=C1C(c2[nH]c3ccc(S(=O)(=O)O)cc3c2O)=Nc2ccc(S(=O)(=O)O)cc21 | Rhinovirus | - | - | Human embryonic lung cells | cytopathic effect | - | inhibition | 10 µg/mL | 0%
O=C(c1ccc(Br)c(Cl)c1)N1CCn2c(c3n(c2=O)C[C@H](O)CN(Cc2ccccc2)C3=O)C1 | Hepatitis B virus | - | - | HepG2.117 | PCR | - | EC50 | - | 0.5–5 µM
Cc1cn([C@@H]2O[C@H](CO)[C@@H](O)[C@@H]2F)c(=O)nc1N | Varicella zoster virus | Kawaguchi | - | HELF | plaque count | - | inhibition | 0.1 µg/mL | 100%
COC(=O)N[C@H](C(=O)N1CCCC1c1ncc(-c2ccc(-c3ccc(-c4cnc([C@@H]5CC(C)CN5C(=O)[C@@H](NC(=O)CO)C(C)C)[nH]4)cc3)cc2)[nH]1)C(C)C | Hepatitis C virus | 1b | D320E | ET | luciferase | - | EC50 | - | 0.0000062 µM
O=C1c2cccc(O)c2C(=O)c2cn[nH]c21 | Cryptosporidium parvum | - | - | - | - | - | inhibition | 100 µM | 100%
Nc1nc(=O)n([C@@H]2O[C@H](CO)[C@@H](O)[C@@H]2F)cc1I | Varicella zoster virus | HIRAI | - | HELF | plaque count | - | inhibition | 0.001 µg/mL | 0%
CCCC(CCC)C(NC(C)=O)C1C(N=C(N)N)CC(C(=O)O)C1O | Influenza A virus | Influenza A/Sydney/05/97 (H3N2) | - | MDCK | - | - | EC50 | - | 0.1 µM
CCn1ncc2c1C(=O)c1c(O)ccc(O)c1C2=O | Cryptosporidium parvum | - | - | - | - | - | inhibition | 10 µM | <10%
C=CCc1ccc(O)c(OC)c1 | Candida albicans | 3068 | - | - | turbidity | - | MIC90 | - | 495 µg/mL
Nc1nc2c(ncn2COC(CO)CO)c(=O)[nH]1 | Human cytomegalovirus | 1038RB (ASP344GLU AND ALA355VAL) | - | MRC-5 | hybridisation | - | EC50 | - | 0.24 µM
C=Cc1cn([C@@H]2O[C@H](CO)[C@@H](O)[C@@H]2O)c(=O)[nH]c1=O | Varicella zoster virus | HIRAI | - | HELF | plaque count | - | inhibition | 1 µg/mL | 100%
COc1ccc2oc(=O)n(-c3ccc(F)cc3)c(=S)c2c1 | Mycobacterium kansasii | 6509/96 | - | - | - | 14 d | MIC | - | 16 µM
O=C(Nc1ccc2c(O)c(N=Nc3ccc(N=Nc4ccc(S(=O)(=O)O)cc4)cc3)c(S(=O)(=O)O)cc2c1)c1ccccc1 | Herpes simplex virus | - | - | Human conjunctiva cells | cytopathic effect | - | inhibition | 10 µg/mL | 0%
CC(C)N=C(N)c1ccc2nc(-c3ccc4c(c3)Cc3cc(-c5nc6ccc(C(N)=NC(C)C)cc6[nH]5)ccc3-4)[nH]c2c1 | Candida albicans | ATCC 76615 | - | - | - | - | MFC | - | 1.56 µg/mL
Fc1ccc2oc(=S)n(-c3cccc(Cl)c3)c(=S)c2c1 | Mycobacterium kansasii | 6509/96 | - | - | - | 14 d | MIC | - | 2 µM

Repeating the final 4 entries:

| compound | species | strain or isolate | mutations | cells | read by | setting | read-out | tested at | value |
|---|---|---|---|---|---|---|---|---|---|
| COc1ccc2oc(=O)n(-c3ccc(F)cc3)c(=S)c2c1 | Mycobacterium kansasii | 6509/96 | - | - | - | 14 d | MIC | - | 16 µM |
| O=C(Nc1ccc2c(O)c(N=Nc3ccc(N=Nc4ccc(S(=O)(=O)O)cc4)cc3)c(S(=O)(=O)O)cc2c1)c1ccccc1 | Herpes simplex virus | - | - | Human conjunctiva cells | cytopathic effect | - | inhibition | 10 µg/mL | 0% |
| CC(C)N=C(N)c1ccc2nc(-c3ccc4c(c3)Cc3cc(-c5nc6ccc(C(N)=NC(C)C)cc6[nH]5)ccc3-4)[nH]c2c1 | Candida albicans | ATCC 76615 | - | - | - | - | MFC | - | 1.56 µg/mL |
| Fc1ccc2oc(=S)n(-c3cccc(Cl)c3)c(=S)c2c1 | Mycobacterium kansasii | 6509/96 | - | - | - | 14 d | MIC | - | 2 µM |